# US20250255894A1, “INHIBITORS OF EIF4A” (published 2025)
# System: H1N1
# Experiment: Low dose serial passage of H1N1 in MDCK cells, plaque assay
smiles,measurement,setting,value
CC(N)C12CC3CC(CC(C3)C1)C2 (centres unmarked),viral titre in passage P2,"MDCK cells, NC 20 μM or RIM 1 μg/ml, 48 h pi",viral titre increased significantly
same,resistance on repeat treatment,serial passage P0 to P2,resistance to RIM increased during passage P2
